Measured values from several laboratories, pooled; numbers as filed in NIAID ChemDB.

Neighbouring rows are from separate reports. Percent inhibition refers to the dose given; in toxicity tests it is the harm to the cells. ICn is the concentration giving n% inhibition. Blank or dashed fields: not listed here. ECn is the concentration giving n% inhibition of infection, replication or growth.

SMILES	strain	target	kind	agent	dose	cells	read-out	value
NC(=O)[C@H](Cc1c[nH]c2ccc(NC(=O)C(=O)O)cc12)NC(=O)c1ccc2c(c1)nc(-c1ccoc1)n2C1CCCCC1	-	RNA-dependent RNA polymerase	target	Poliovirus	-	-	IC50	>25 µM
Cn1cc(NC(=O)c2cc(NC(=O)c3cc(NC(=O)c4cc(NC(=O)c5cc(NC=O)cn5C)cn4C)cn3C)cn2C)cc1C(=O)NCCC(=N)N	Noguchi	-	culture	Vaccinia virus	200 µg/mL	BSC-1	inhibition	50%
O=C(N[C@@H](Cc1c[nH]c2ccc([N+](=O)[O-])cc12)C(=O)O)c1ccc2c(c1)nc(-c1ccoc1)n2C1CCCCC1	-	RNA-dependent RNA polymerase	target	Poliovirus	-	-	IC50	>25 µM
Brc1ccc(C2=Cc3ccccc3OC2)cc1	TYPE 2	-	culture	Poliovirus	10 µM	HEP-2	inhibition	0%
Nc1nc(=O)n([C@@H]2C=C(CO)[C@@H](O)[C@H]2O)cc1F	BSH	-	culture	Variola virus	-	MK2	EC50	0.51 µg/mL
CCOc1cc(C(C)NC(=O)c2ccc3c(c2)nc(-c2ccccn2)n3C2CCCCC2)ccc1OC	-	RNA-dependent RNA polymerase	target	Poliovirus	-	-	IC50	>25 µM
CCCCCCCCCCCCCCCCCC(=O)OC[C@@H](COP(=O)(O)OCCNCCO[C@@]1(C(=O)O)O[C@@H]([C@H](O)[C@H](O)CO)[C@H](NC(C)=O)[C@@H](O)[C@H]1F)OC(=O)CCCCCCCCCCCCCCCCC	H4N1 A/DUCK/849/3/80	Sialidase	target	Influenza A virus	-	-	IC50	125 µM
O=C(N[C@@H](Cc1ccc(-n2cc(C(=O)O)nn2)cc1)C(=O)O)c1ccc2c(c1)nc(-c1ccoc1)n2C1CCCCC1	-	RNA-dependent RNA polymerase	target	Poliovirus	-	-	IC50	>25 µM
CCCCCCCCCCCCC/C=C/[C@@H](O)[C@H](CO[C@@H]1O[C@H](CO)[C@H](O)[C@H](OS(=O)(=O)O)[C@H]1O)NC(=O)CCCCCCCCCCCCCCCCCCCCCCC	H6N4 A/mallard/Alberta/58/89	Sialidase	target	Influenza A virus	200 µM	-	inhibition	39.9%
Nc1ccn(C[C@@H](CO)OCP(=O)(O)O)c(=O)n1	Isolate Yamada	-	culture	Variola virus	-	VERO	EC50	12.1 µg/mL
Clc1ccc2c(c1)C=C(c1ccc(Br)cc1)CO2	TYPE 2	-	culture	Poliovirus	10 µM	HEP-2	inhibition	26%
Cn1nnnc1-c1ccc(C[C@H](NC(=O)c2ccc3c(c2)nc(-c2ccoc2)n3C2CCCCC2)C(=O)O)cc1	-	RNA-dependent RNA polymerase	target	Poliovirus	-	-	IC50	>25 µM
CCCCCCCCCCCCCCCCCC(=O)OC[C@@H](COP(=O)(O)OCCNCCO[C@@]1(C(=O)O)O[C@@H]([C@H](O)[C@H](O)CO)[C@H](NC(C)=O)[C@@H](O)[C@H]1F)OC(=O)CCCCCCCCCCCCCCCCC	H2N2 A/AICHI/2/68	Sialidase	target	Influenza A virus	-	-	IC50	31.3 µM
Clc1ccc(C2CCc3ccccc3O2)c(Cl)c1	II (TYPE 2)	-	culture	Poliovirus	-	HEP-2	EC50	>10 µM
O=C(O)COc1ccccc1CN1CCC(CNC(=O)c2ccc3c(c2)nc(-c2ccoc2)n3C2CCCCC2)C1	-	RNA-dependent RNA polymerase	target	Poliovirus	-	-	IC50	>25 µM
Nc1ccn(C[C@H]2COP(=O)(O)CO2)c(=O)n1	Isolate K1629	-	culture	Variola virus	-	VERO	EC50	25 µg/mL
Nc1ncnc2c1ncn2[C@@H]1C=C(CO)[C@@H](O)[C@H]1O	CPX	-	culture	Cowpox virus	-	VERO	EC50	>100 µg/mL
Clc1ccc(C2=Cc3cc(Cl)ccc3OC2)cc1	TYPE 2	-	culture	Poliovirus	10 µM	HEP-2	inhibition	42%
O=C(NC(Cc1ccc(O)c(C(=O)O)c1)C(=O)O)c1ccc2c(c1)nc(-c1ccoc1)n2C1CCCCC1	-	RNA-dependent RNA polymerase	target	Poliovirus	-	-	IC50	>25 µM
N=c1c2ncn([C@@H]3O[C@H](CO)[C@@H](O)[C@H]3O)c2ncn1OCc1cc(F)cc(F)c1	-	-	culture	Monkeypox virus	-	LLC-MK2	EC50	>100 µg/mL
Clc1ccc(C2COc3ccccc3C2)cc1	II (TYPE 2)	-	culture	Poliovirus	-	HEP-2	EC50	>10 µM

The first 2 rows once more:

SMILES,strain,target,kind,agent,dose,cells,read-out,value
NC(=O)[C@H](Cc1c[nH]c2ccc(NC(=O)C(=O)O)cc12)NC(=O)c1ccc2c(c1)nc(-c1ccoc1)n2C1CCCCC1,-,RNA-dependent RNA polymerase,target,Poliovirus,-,-,IC50,>25 µM
Cn1cc(NC(=O)c2cc(NC(=O)c3cc(NC(=O)c4cc(NC(=O)c5cc(NC=O)cn5C)cn4C)cn3C)cn2C)cc1C(=O)NCCC(=N)N,Noguchi,-,culture,Vaccinia virus,200 µg/mL,BSC-1,inhibition,50%